Measured values from several laboratories, pooled; numbers as filed in NIAID ChemDB.

Shared fields: tests in culture; species: HIV-1; endpoint: EC50

ECn: concentration that inhibits the pathogen or its effect by n%.

smiles,cells,conditions,method,mutations,strain or isolate,value
Cc1cn([C@H]2C[C@H](N=[N+]=[N-])[C@@H](CO)O2)c(=O)[nH]c1=O,HeLa,-,luciferase,-,NL4-3 WT,0.0608 µM
CCn1nc(Cc2ccc(OC)c(C#N)c2)cc1C1CCN(C[C@H]2CN([C@@H](C(=O)O)C(C)C)C[C@@H]2c2cccc(F)c2)CC1,HeLa,-,β-galactosidase,-,BaL,<0.0012 µM
Cc1cn([C@H]2C[C@H](N=[N+]=[N-])[C@@H](CO)O2)c(=O)[nH]c1=O,CEM + CEM-SS,-,XTT,RT-Y181C,E BPTU-resistant (RT Y181C),0.03 µM
Cn1c2ccccc2c2c1cc(C#N)c(=O)n2-c1ccc([N+](=O)[O-])cc1,HeLa,-,luciferase,RT-G190S,NNRTI-resistant,0.039 µM
Cc1ccnc2c1NC(=O)c1cccnc1N2C1CC1,CEM + CEM-SS,-,XTT,RT-T139I,Calanolide A-resistant (RT T139I),0.01 µM
CCCOc1ccc(Cc2cc(C3CCN(C[C@H]4CN([C@@H](C(=O)O)[C@@H](C)CC)C[C@@H]4c4cccc(F)c4)CC3)n(CC)n2)cc1,HeLa,50% human serum,β-galactosidase,-,BaL,<0.1 µM
Cc1cc(S(N)(=O)=O)ccc1NC(=O)COc1ccc(Cl)cc1C(=O)c1cc(Cl)cc(C#N)c1,MAGI,-,β-galactosidase,RT-M184V,3TC-resistant (RT M184V) M184V,0.0007 µM
CC(C)=CCN1Cc2cc(Cl)cc3[nH]c(=S)n(c23)C[C@@H]1C,MT-4,-,-,RT-K70R L100I,-,<3 µM
CC(=O)N1CCC(C(=O)N(CCCN2CCC(Cc3ccc(C(N)=O)cc3)CC2)c2ccc(C)c(Cl)c2)CC1,U87 (CD4+ CCR5+) + U87,-,luciferase,-,R5 subtype F_3 recombinant,0.006 µM
CO[P@](=O)(c1cc(C)cc(/C=C/C#N)c1)c1c(C(N)=O)[nH]c2ccc(Cl)cc12,PBMC,-,-,K103N/Y181C,-,0.0088 µM
C#C[C@]1(CO)O[C@@H](n2cnc3c(N)nc(F)nc32)C[C@@H]1O,MT4-GFP,-,fluorescence,M41L/A114S,Clinical isolate,0.00331 µM
CCn1nc(Cc2ccc(OC3CC3)cc2)cc1C1CCN(C[C@H]2CN([C@@H](C(=O)O)C(C)C)C[C@@H]2c2cccc(F)c2)CC1,HeLa,-,β-galactosidase,-,BaL,<0.0012 µM
O=c1[nH]cnc2c1ncn2[C@H]1CC[C@@H](CO)O1,HT4 + HT4 LacZ-1,-,plaque count,RT-M41L Y181C T215Y,HXB2,0.6 µM
CCCc1cc(=O)oc2c3c(c4c(c12)OC(C)(C)C=C4)O[C@@H](C)[C@H](C)[C@@H]3O,CEM + CEM-SS,-,XTT,RT-L100I T139I,Costatolide-resistant (RT L100I T139I),>27 µM
Cc1ccnc2c1NC(=O)c1cccnc1N2C1CC1,PBMC,clinical isolate,cytopathic effect / XTT,-,SIKA,0.2 µM
CCOc1ccc(Cc2cc(C3CCN(C[C@H]4CN([C@@H](C(=O)O)C(C)(C)C)C[C@@H]4c4cccc(F)c4)CC3)n(CC)n2)cc1F,HeLa,50% human serum,β-galactosidase,-,BaL,<0.011 µM
CCCc1cc(=O)oc2c3c(c4c(c12)OC(C)(C)C=C4)O[C@H](C)[C@@H](C)[C@@H]3O,CEMx174 + CEM,-,XTT,-,IIIB,0.5 µM
CCn1nc(Cc2ccc3ccccc3c2)cc1C1CCN(C[C@H]2CN([C@@H](C(=O)O)C(C)(C)C)C[C@@H]2c2cccc(F)c2)CC1,HeLa,50% human serum,β-galactosidase,-,BaL,<0.1 µM
N#Cc1cc2[nH]c3ccccc3c2n(-c2ccc([N+](=O)[O-])cc2)c1=O,HeLa,-,luciferase,RT-Y181C,NNRTI-resistant,0.45 µM
Fc1cccc(F)c1C1SCc2nc3ccccc3n21,CEM + CEM-SS,-,XTT,-,IIIB,2.5 µM

Repeating the final 2 entries:

{"smiles": "N#Cc1cc2[nH]c3ccccc3c2n(-c2ccc([N+](=O)[O-])cc2)c1=O", "cells": "HeLa", "method": "luciferase", "mutations": "RT-Y181C", "strain or isolate": "NNRTI-resistant", "value": "0.45 µM"}
{"smiles": "Fc1cccc(F)c1C1SCc2nc3ccccc3n21", "cells": "CEM + CEM-SS", "method": "XTT", "strain or isolate": "IIIB", "value": "2.5 µM"}

Rows are shuffled and stem from different studies. An empty or dashed field is not shown.